Measured values from several laboratories, pooled; numbers as filed in NIAID ChemDB.

Common to all: whole-cell or culture tests; species: Vaccinia virus

Neighbouring rows are from separate reports.

{"SMILES": "CCn1nc(Cc2n[nH]c(=S)o2)nc1C", "read-out": "MIC", "result": ">400 µg/mL"}
{"SMILES": "Nc1nccc2c1ncn2[C@@H]1CC[C@@H](O)[C@H]1O", "read-out": "MIC", "result": "0.02 µg/mL"}
{"SMILES": "Cc1nc(CC(=O)NN)nn1C", "read-out": "MIC", "result": ">400 µg/mL"}
{"SMILES": "CCCCc1cn([C@@H]2OC3COP(=O)(O)OC3[C@H]2O)c(=O)nc1N", "read-out": "EC50", "result": ">400 µg/mL"}
{"SMILES": "NC1=CC(c2ccccc2)=Nn2c(nnc2-c2cn(-c3ccccc3)nc2-c2ccccc2)S1", "cells": "HEL", "read-out": "EC50", "result": ">80 µg/mL"}
{"SMILES": "Nc1ccn(C[C@@H](CO)OCP(=O)(O)O)c(=O)n1", "read-out": "MIC", "result": "4 µg/mL"}
{"SMILES": "Cn1cc(NC(=O)c2cc(NC(=O)c3cc(NC=O)cn3C)cn2C)cc1C(=O)NCCC(=N)N", "strain or isolate": "Noguchi", "cells": "BSC-1", "dose": "10 µg/mL", "read-out": "inhibition", "result": "83%"}
{"SMILES": "COc1ccc(-n2c(Cc3nc4n(n3)CCCC4)n[nH]c2=S)cc1", "read-out": "MIC", "result": "80 µg/mL"}
{"SMILES": "Nc1ncnc2c1ncn2[C@@H]1C=C[C@@H](O)[C@H]1O", "read-out": "MIC", "result": "0.7 µg/mL"}
{"SMILES": "Nc1ncnc2c1ncn2[C@@H]1C=C(CO)[C@@H](O)[C@H]1O", "cells": "E6SM", "read-out": "EC50", "result": "0.2 µg/mL"}
{"SMILES": "NC1=Nn2c(nnc2-c2cn(-c3ccccc3)nc2-c2ccccc2)SC1", "cells": "HEL", "read-out": "EC50", "result": ">16 µg/mL"}
{"SMILES": "CCn1cnc(=N)c2[nH]cnc21", "cells": "BSC-1", "dose": "12 µg/mL", "read-out": "inhibition", "result": "0%"}
{"SMILES": "Nc1nccc2c1ncn2[C@@H]1C[C@H](CO)[C@@H](O)[C@H]1O", "read-out": "MIC", "result": "2 µg/mL"}
{"SMILES": "Oc1cccc(O)c1-c1c2nc(c(-c3c(O)cccc3O)c3ccc([nH]3)c(-c3c(O)cccc3O)c3nc(c(-c4c(O)cccc4O)c4ccc1[nH]4)C=C3)C=C2", "strain or isolate": "WR", "cells": "BSC-40", "read-out": "EC50", "result": "0.19 µg/mL"}
{"SMILES": "C=C[C@H](O)C1=C[C@@H](n2cnc3c(N)ncnc32)[C@H](O)[C@@H]1O", "cells": "E6SM", "read-out": "EC50", "result": "70 µg/mL"}
{"SMILES": "CCSC1NN=C(Cc2nc(C)n(C)n2)N1c1ccccc1", "read-out": "MIC", "result": "80 µg/mL"}
{"SMILES": "N=c1ncn(CC2CCCCC2)c2nc[nH]c12", "cells": "BSC-1", "dose": "12 µg/mL", "read-out": "inhibition", "result": "0%"}
{"SMILES": "CCCCCc1cn([C@@H]2O[C@H](COP(=O)(O)O)[C@@H](O)[C@H]2O)c(=O)nc1N", "read-out": "EC50", "result": ">400 µg/mL"}
{"SMILES": "Cn1cc(NC(=O)c2cc(NC(=O)c3cc(NC(=O)c4cc(NC(=O)c5cc(NC=O)cn5C)cn4C)cn3C)cn2C)cc1C(=O)NCCC(=N)N", "strain or isolate": "Noguchi", "cells": "BSC-1", "dose": "200 µg/mL", "read-out": "inhibition", "result": "50%"}
{"SMILES": "C/C=C/c1cn([C@H]2C[C@H](O)[C@@H](CO)O2)c(=O)[nH]c1=O", "cells": "PRK", "read-out": "EC99", "result": ">100 µg/mL"}
{"SMILES": "C#C[C@@H](O)C1=C[C@@H](n2cnc3c(N)ncnc32)[C@H](O)[C@@H]1O", "cells": "E6SM", "read-out": "EC50", "result": "0.07 µg/mL"}
{"SMILES": "Nn1c(SCC(=O)O)nnc1-c1cn(-c2ccccc2)nc1-c1ccccc1", "cells": "HEL", "read-out": "EC50", "result": ">80 µg/mL"}
{"SMILES": "CC[C@H](O)C1=C[C@@H](n2cnc3c(N)ncnc32)[C@H](O)[C@@H]1O", "cells": "E6SM", "read-out": "EC50", "result": ">200 µg/mL"}
{"SMILES": "CCc1cn([C@@H]2OC3COP(=O)(O)OC3[C@H]2O)c(=O)nc1N", "read-out": "EC50", "result": ">400 µg/mL"}
{"SMILES": "N=c1c2ncn([C@@H]3O[C@H](COP(=O)(O)O)[C@@H](O)[C@@H]3O)c2ncn1O", "read-out": "MIC", "result": "1–10 µg/mL"}
{"SMILES": "CCSc1ncnc2c1ncn2[C@@H]1OC2COP(=O)(O)OC2[C@H]1O", "read-out": "MIC", "result": "1000 µg/mL"}
{"SMILES": "N=c1ncn(Cc2cccc([N+](=O)[O-])c2)c2nc[nH]c12", "cells": "BSC-1", "dose": "25 µg/mL", "read-out": "inhibition", "result": "0%"}
{"SMILES": "c1ccc(-c2nn3c(-c4cn(-c5ccccc5)nc4-c4ccccc4)nnc3s2)cc1", "cells": "HEL", "read-out": "EC50", "result": ">3.2 µg/mL"}
{"SMILES": "CCn1nc(-c2ccc(Cn3ccc4ccccc43)cc2)nc1C", "read-out": "MIC", "result": "80 µg/mL"}

For reference, 3 entries again:

Nc1nccc2c1ncn2[C@@H]1C[C@H](CO)[C@@H](O)[C@H]1O ; read-out: MIC ; result: 2 µg/mL
CCn1nc(-c2ccc(Cn3ccc4ccccc43)cc2)nc1C ; read-out: MIC ; result: 80 µg/mL
NC1=Nn2c(nnc2-c2cn(-c3ccccc3)nc2-c2ccccc2)SC1 ; cells: HEL ; read-out: EC50 ; result: >16 µg/mL

a–b is a range or a potency band. Inhibition is in % at the dose shown (toxicity tests: loss of growth or viability). ECn is the concentration giving n% inhibition of infection, replication or growth.